Pooled drug test results. Numbers come from NIAID ChemDB, via PubChem.

All rows: growth or infection tests; species: Epstein-Barr virus

ECn is the concentration giving n% inhibition of infection, replication or growth. Two numbers with a dash give a range or band. Rows are shuffled and stem from different studies. Blank or dashed fields: not listed here.

O[C@]12CO[C@@H](c3ccc4c(c3)OCO4)[C@@]1(O)CO[C@@H]2c1ccc2c(c1)OCO2 ; method: hybridisation ; cells: Akata ; measure: EC50 ; result: 67 µM
CC(=O)N[C@H]1C[C@@H](n2cnc3c(N)ncnc32)[C@H](O)[C@@H]1O ; cells: HFF ; measure: EC50 ; result: >100 µg/mL
CCOC(=O)CC1OP(=O)(OC[C@H]2O[C@@H](n3cc(/C=C/Br)c(=O)[nH]c3=O)C[C@@H]2O)Oc2cccc(Cl)c21 ; method: hybridisation ; measure: EC50 ; result: 3.98 µg/mL
Nc1ncnc2c1ncn2[C@H]1C[C@]12C[C@H]2CO ; measure: EC50 ; result: 22 µM
CC(C)CSc1nc(N)nc2c1ncn2/C=C1/C[C@@H]1CO ; method: hybridisation ; cells: Akata ; measure: EC50 ; result: 0.6 µM
CC1(C)[C@@H](O[C@H]2O[C@H](C(=O)O)[C@@H](O)[C@H](O)[C@H]2O[C@@H]2O[C@H](C(=O)O)[C@@H](O)[C@H](O)[C@H]2O)CC[C@]2(C)[C@H]3C(=O)C=C4[C@@H]5C[C@@](C)(C(=O)O)CC[C@]5(C)CC[C@@]4(C)[C@]3(C)CC[C@@H]12 ; cells: RAJI ; measure: EC50 ; result: 40 µM
O=c1[nH]c(=O)n([C@H]2C[C@H](O)[C@@H](CO)O2)cc1C(O)C(Cl)Cl ; strain: P3HR-1 ; method: plaque count ; cells: RAJI ; measure: EC50 ; result: 22.3 µM
Nc1ncnc2c1ncn2/C=C1\[C@H](CO)C1(F)F ; method: ELISA ; cells: DAUDI ; measure: EC50 ; result: 77 µM
Nc1nc(Cl)c2ncn(/C=C3/C[C@H]3CO)c2n1 ; method: ELISA ; cells: H-1 ; measure: EC50 ; result: 0.7 µM
Nc1cn(/C=C2/C[C@H]2CO)c(=O)[nH]c1=O ; method: hybridisation ; cells: H-1 ; measure: EC50 ; result: 2.5 µM
Nc1ncnc2c1ncn2[C@H]1C[C@]12C[C@H]2CO ; method: ELISA ; cells: DAUDI ; measure: EC50 ; result: 22 µM
Cc1cn(/C=C2/CC2(CO)CO)c(=O)[nH]c1=O ; method: ELISA ; cells: P3HR-1 ; measure: EC50 ; result: 4.4 µM
O=C(NCc1ccc(Cl)cc1)c1cn2c3c(cc(CN4CCOCC4)cc3c1=O)OC(c1cccnc1)C2 ; method: hybridisation ; cells: DAUDI ; measure: EC50 ; result: >43 µM
COC(=O)C(C)NP(=O)(OC[C@@H]1C/C1=C/n1cc(C)c(=O)[nH]c1=O)Oc1ccccc1 ; method: hybridisation ; cells: H-1 ; measure: EC50 ; result: >20 µM
Cc1cn([C@@H]2O[C@H](CO)[C@H]2CO)c(=O)[nH]c1=O ; strain: P3HR-1 ; method: plaque count ; cells: HFF ; measure: EC50 ; result: >100 µg/mL
O=c1[nH]c(=O)n([C@H]2C[C@H](O)[C@@H](COP3(=O)OCc4cccc(-c5ccccc5)c4O3)O2)cc1/C=C/Br ; method: hybridisation ; measure: EC50 ; result: 33.6 µg/mL
Nc1nc2c(ncn2[C@H]2C[C@]23C[C@H]3CO)c(=O)[nH]1 ; method: ELISA ; cells: DAUDI ; measure: EC50 ; result: >199 µM
CSc1nc(N)nc2c1ncn2/C=C1/C[C@@H]1CO ; method: hybridisation ; cells: Akata ; measure: EC50 ; result: 2.3 µM
Nc1nc(NCC2CC2)c2ncn(/C=C3/C[C@@H]3CO)c2n1 ; method: ELISA ; cells: DAUDI ; measure: EC50 ; result: 0.6 µM
CC(C)(C)COc1nc(N)nc2c1ncn2/C=C1/C[C@@H]1CO ; method: hybridisation ; cells: Akata ; measure: EC50 ; result: 4.8 µM
O=C(NCc1ccc(Cl)cc1)c1cn(N2CCOCC2)c2ccc(CN3CCOCC3)cc2c1=O ; method: plaque count ; cells: HFF ; measure: EC50 ; result: 0.2 µM
Nc1ccn(C[C@@H](CO)OCP(=O)(O)O)c(=O)n1 ; measure: MIC ; result: 0.01 µg/mL
Nc1nc2ncn(/C=C3\C(F)C3(CO)CO)c2c(=O)[nH]1 ; method: hybridisation ; cells: Akata ; measure: EC50 ; result: >100 µM
COC(c1cn([C@H]2C[C@H](O)[C@@H](CO)O2)c(=O)[nH]c1=O)C(Cl)Cl ; strain: P3HR-1 ; method: plaque count ; cells: RAJI ; measure: EC50 ; result: >28.2 µM
CC(C)Nc1nc2cc(Cl)c(Cl)cc2n1[C@H]1O[C@@H](CO)[C@H](O)[C@@H]1O ; cells: Akata ; measure: EC50 ; result: 0.15–1.1 µM
Nc1nc2c(ncn2COCCO)c(=O)[nH]1 ; method: cytopathic effect ; cells: P3HR-1 ; measure: EC50 ; result: 0.3 µM
COC(c1cn([C@H]2C[C@H](O)[C@@H](CO)O2)c(=O)[nH]c1=O)C(Cl)I ; strain: P3HR-1 ; method: plaque count ; cells: RAJI ; measure: EC50 ; result: >214 µM
COc1ncnc2c1ncn2[C@@H]1O[C@H](CO)[C@@H](O)[C@@H]1O ; method: cytopathic effect ; cells: P3HR-1 ; measure: EC50 ; result: 50 µM
Nc1ncnc2c1ncn2C[C@@H](CO)OCP(=O)(O)O ; measure: MIC ; result: 0.03 µg/mL
Cc1cn([C@H]2O[C@@H](CO)[C@H](O)[C@H]2F)c(=O)[nH]c1=O ; cells: H-1 ; measure: EC90 ; result: 5 µM
Nc1nc2c(ncn2C/C=C2/CC2P(=O)(O)O)c(=O)[nH]1 ; cells: DAUDI ; measure: EC50 ; result: 1.1 µM
Nc1nc2c(ncn2/C=C2/CC2[C@H](O)CO)c(=O)[nH]1 ; method: hybridisation ; cells: Akata ; measure: EC50 ; result: >20 µM
Nc1nc2c(ncn2/C=C2/CC2(CO)CO)c(=O)[nH]1 ; method: hybridisation ; cells: H-1 ; measure: EC50 ; result: >20 µM
CC(C)Nc1nc2cc(Cl)c(Cl)cc2n1[C@H]1O[C@@H](CO)[C@H](O)[C@@H]1O ; method: hybridisation ; cells: DAUDI ; measure: EC50 ; result: 5.1 µM
CCCCCCCCSc1nc(N)nc2c1ncn2/C=C1/C[C@@H]1CO ; method: hybridisation ; cells: Akata ; measure: EC50 ; result: >20 µM
CC(N=[N+]=[N-])c1cn([C@H]2C[C@H](O)[C@@H](CO)O2)c(=O)[nH]c1=O ; strain: P3HR-1 ; method: cytopathic effect ; cells: HFF ; measure: EC50 ; result: 44.6 µM
Nc1nc2c(ncn2[C@@H]2C[C@H](O)[C@@H](O)[C@H]2O)c(=O)[nH]1 ; method: antigen ; cells: DAUDI ; measure: EC50 ; result: 2.9 µg/mL
Nc1ncc2ncn(/C=C3/CC3CO)c2n1 ; method: ELISA ; measure: EC50 ; result: >100 µM
O[C@@H]1[C@H](O)[C@H](O)CO[C@H]1n1c(Br)nc2cc(Cl)c(Cl)cc21 ; method: ELISA ; cells: DAUDI ; measure: EC50 ; result: >72 µM
C=CCOc1nc(N)nc2c1ncn2/C=C1/C[C@@H]1CO ; method: hybridisation ; cells: Akata ; measure: EC50 ; result: 1 µM
CCCCCCCCCCCCOCCCOP1(=O)CO[C@@H](Cn2ccc(N)nc2=O)CO1 ; method: hybridisation ; cells: DAUDI ; measure: EC50 ; result: >0.8 µM
Nc1ncc2ncn(/C=C3\CC3CO)c2n1 ; method: ELISA ; measure: EC50 ; result: >100 µM
COC(=O)C(C)NP(=O)(OC[C@@H]1C/C1=C\n1cc(C)c(=O)[nH]c1=O)Oc1ccccc1 ; method: hybridisation ; cells: H-1 ; measure: EC50 ; result: >20 µM
Cc1cn(C=C2CC2(F)CO)c(=O)[nH]c1=O ; method: hybridisation ; cells: DAUDI ; measure: EC50 ; result: 221 µM
CCCCSc1nc(N)nc2c1ncn2/C=C1/C[C@@H]1CO ; method: hybridisation ; cells: Akata ; measure: EC50 ; result: 2.5 µM
Cn1cc(C(=O)NCc2ccc(Cl)cc2)c(=O)c2cc(CN3CCOCC3)ccc21 ; strain: 2 isolates ; measure: EC50 ; result: 0.17 µM
O=c1[nH]c(=O)n([C@H]2CS[C@@H](CO)O2)cc1I ; cells: H-1 ; measure: EC50 ; result: >100 µM
Nc1ccn(C[C@@H](CO)OCP(=O)(O)O)c(=O)n1 ; method: hybridisation ; cells: DAUDI ; measure: EC50 ; result: 65.6 µM
Nc1nc2c(ncn2C=C2CC2CO)c(=O)[nH]1 ; cells: DAUDI ; measure: EC50 ; result: 1.4 µM
CCCCCCCCCCCCCCCCCCOC[C@H](COP(=O)(O)CO[C@H](CO)Cn1ccc(N)nc1=O)OCc1ccccc1 ; method: hybridisation ; cells: DAUDI ; measure: EC50 ; result: 0.5 µM
OC[C@H]1O[C@@H](n2c(Br)nc3cc(Cl)c(Cl)cc32)[C@H](O)[C@@H]1O ; method: hybridisation ; cells: DAUDI ; measure: EC50 ; result: >80 µM
Cc1cn([C@@H]2O[C@H](CO)[C@@H](O)[C@@H]2F)c(=O)[nH]c1=O ; cells: H-1 ; measure: EC50 ; result: <0.1 µM
COC(c1cn([C@H]2C[C@H](O)[C@@H](CO)O2)c(=O)[nH]c1=O)C(I)I ; strain: P3HR-1 ; method: plaque count ; cells: RAJI ; measure: EC50 ; result: 26.4 µM
Nc1nc(NCC2CC2)c2ncn(/C=C3/C[C@@H]3CO)c2n1 ; method: ELISA ; cells: P3HR-1 ; measure: EC50 ; result: 0.6 µM

Again, the opening 8 rows:

structure,strain,method,cells,measure,result
O[C@]12CO[C@@H](c3ccc4c(c3)OCO4)[C@@]1(O)CO[C@@H]2c1ccc2c(c1)OCO2,,hybridisation,Akata,EC50,67 µM
CC(=O)N[C@H]1C[C@@H](n2cnc3c(N)ncnc32)[C@H](O)[C@@H]1O,,,HFF,EC50,>100 µg/mL
CCOC(=O)CC1OP(=O)(OC[C@H]2O[C@@H](n3cc(/C=C/Br)c(=O)[nH]c3=O)C[C@@H]2O)Oc2cccc(Cl)c21,,hybridisation,,EC50,3.98 µg/mL
Nc1ncnc2c1ncn2[C@H]1C[C@]12C[C@H]2CO,,,,EC50,22 µM
CC(C)CSc1nc(N)nc2c1ncn2/C=C1/C[C@@H]1CO,,hybridisation,Akata,EC50,0.6 µM
CC1(C)[C@@H](O[C@H]2O[C@H](C(=O)O)[C@@H](O)[C@H](O)[C@H]2O[C@@H]2O[C@H](C(=O)O)[C@@H](O)[C@H](O)[C@H]2O)CC[C@]2(C)[C@H]3C(=O)C=C4[C@@H]5C[C@@](C)(C(=O)O)CC[C@]5(C)CC[C@@]4(C)[C@]3(C)CC[C@@H]12,,,RAJI,EC50,40 µM
O=c1[nH]c(=O)n([C@H]2C[C@H](O)[C@@H](CO)O2)cc1C(O)C(Cl)Cl,P3HR-1,plaque count,RAJI,EC50,22.3 µM
Nc1ncnc2c1ncn2/C=C1\[C@H](CO)C1(F)F,,ELISA,DAUDI,EC50,77 µM